In PubChem BioAssay AID504582 (Broad Institute, 2011) one finds growth rescue data, which are given here for 51 compounds.

The entries are a selection whose mix differs from that of the whole data set. Active and inactive are the calls of the source. No stated cut-off is given here; in the data, active means growth rescue above about 28% (passing the limit was not always enough); inconclusive means no clear call, values can overlap the other calls.

A short description of this test: rescue of yeast from PfHsp40 toxicity, primary screen, S. cerevisiae, ATP luminescence (AID 504582).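 Further: yeast W303a lacking pdr1 and pdr3 grown in galactose medium; growth measured after three days at 30 °C.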 The conditions noted are these: S. cerevisiae expressing PfHsp40, growth rescue, at 12.5 µM, hits give high values.
As for `COc1ccccc1OP(C)(=O)Nc1cc(Cl)ccc1C` (stereo unspecified), the growth rescue is inactive: -0.852%. On to `COc1ccc(OP(C)(=O)Nc2cccc(F)c2)cc1` (stereo unspecified), for which the growth rescue is inactive: 1.42%. The result for `Cc1cc(C)cc(OP(C)(N)=O)c1` (stereo unspecified) reads inactive: -0.028%; that for `CCOC(=O)c1ccc(NP(C)(=O)Oc2ccccc2)cc1` (stereo unspecified), inactive: 0.0695%.

In the case of `COc1ccccc1OP(C)(=O)Nc1ccc(C)cc1` (stereo unspecified), the growth rescue was inactive: 0.258%. On to `Cc1ccc(NP(C)(=O)Oc2ccccc2)c(C)c1` (stereo unspecified), for which the growth rescue is inactive: 21.4%. Take `CC(C)(C)c1ccc(OP(C)(=O)Nc2ccc(SC(F)(F)F)cc2)cc1` (stereo unspecified): the growth rescue was active: 35%. With `Cc1cccc(C)c1OP(C)(N)=O` (stereo unspecified), the growth rescue is inactive: -0.057%. With `O=[N+]([O-])c1ccc2c(c1)C=Nc1ccccc1O2`, the growth rescue was inactive: 0.292%. Take `O=[N+]([O-])c1cc([N+](=O)[O-])c(Nc2cccnc2)c([N+](=O)[O-])c1`: the growth rescue was inactive: -2.01%. The same measure for `COc1cc(C(=O)NCC2(N3CCOCC3)CCCCC2)ccc1OCC(C)C`: inactive: -0.781%; for `CCN(CC)CCCOC(=O)C(O)(c1ccccc1)c1ccccc1`: inactive: 0.0395%. The same measure for `CP(=O)(Nc1ccccn1)Oc1ccc(Cl)cc1` (stereo unspecified): inactive: -1.54%; for `CCOP(C)(=S)SCC(=O)NC(C)C(=O)O` (stereo unspecified): inactive: 1.19%. As to `CCOC(=O)c1ccc(NP(C)(=O)Oc2ccc(OC)cc2)cc1` (stereo unspecified), the growth rescue was inactive: 0.995%. The result for `CCc1ccc(OP(C)(=O)N2CCN(c3ccc([N+](=O)[O-])cc3)CC2)cc1` (stereo unspecified) reads inactive: 6.6%; that for `CP(=O)(NC(=O)Nc1ccccc1)Oc1ccccc1` (stereo unspecified), inactive: -0.712%; that for `Cc1cc(C)cc(OP(C)(=O)Nc2ccc(SC(F)(F)F)cc2)c1` (stereo unspecified), inactive: 0.772%.

On to `CC(=O)OCC12CC(OC(=O)CC(C)C)C(C)=CC1OC1C(O)C(OC(C)=O)C2(C)C12CO2` (stereo unspecified), for which the growth rescue is inactive: 18.2%.

In the case of `Cc1cccc(C)c1OP(C)(=O)Nc1ccc(SC(F)(F)F)cc1` (stereo unspecified), the growth rescue was inactive: -0.671%. As to `CP(=O)(Oc1ccccc1)OC(c1ccccc1)C(F)(F)F` (stereo unspecified), the growth rescue is inactive: 0.862%. As to `COc1ccccc1OP(C)(=O)Nc1ccccc1` (stereo unspecified), the growth rescue is inactive: -0.341%. The result for `CP(=O)(Nc1ccccc1Br)Oc1ccccc1` (stereo unspecified) reads inactive: -0.147%; that for `CP(=S)(Nn1cnnc1)Oc1ccccc1` (stereo unspecified), inactive: -0.321%; that for `CCCCOc1ccc(C(=O)NCC2(N3CCCCC3)CCCCC2)cc1OC`, inactive: -0.702%. `CP(=O)(Nc1ccc(SC(F)(F)F)cc1)Oc1ccccc1` (stereo unspecified): the growth rescue was inactive: 3.03%. The result for `CCCOc1ccc(NP(C)(=O)Oc2ccc(Cl)cc2)cc1` (stereo unspecified) reads inactive: 3.66%. Take `COc1ccccc1OP(C)(=O)Nc1c(C)cccc1C` (stereo unspecified): the growth rescue is inactive: 0.006%. Regarding `CN1CCCCC1COC(=O)C1(O)c2ccccc2CCc2ccccc21` (stereo unspecified), the growth rescue was inactive: 2.06%.

On to `O=[N+]([O-])c1cc([N+](=O)[O-])c(Nc2nnnn2CCO)c([N+](=O)[O-])c1`, for which the growth rescue is inactive: 0.409%. Turning to `CN(C)C1(CNC(=O)c2ccc(S(C)(=O)=O)cc2)CCCCC1`, the growth rescue was inactive: 0.317%. Regarding `CC1=C2N=C(C=C3N=C(C(C)=C4[N-][C@@](C)([C@@H]5N=C1[C@](C)(CCC(=O)NC[C@@H](C)OP(=O)([O-])O[C@H]1[C@@H](O)[C@@H](n6cnc7cc(C)c(C)cc76)O[C@@H]1CO)[C@H]5CC(N)=O)[C@@](C)(CC(N)=O)[C@@H]4CCC(N)=O)[C@@](C)(CC(N)=O)[C@@H]3CCC(N)=O)C(C)(C)[C@@H]2CCC(N)=O.[C-]#N.[Co+3]`, the growth rescue is inactive: -0.271%. The result for `CCOC(=O)C(CC)C1=NC(C)(C)Cc2ccccc21.O=[N+]([O-])c1cc([N+](=O)[O-])c(O)c([N+](=O)[O-])c1` (stereo unspecified) reads inactive: 0.791%; that for `CC1CCOC(=O)C=CC=CC(=O)OC2CC3OC4C5OC5(C)CCC4(COC(=O)C1O)C2(C)C31CO1` (stereo unspecified), active: 102%.

For `Cc1nc2ccc3ccccc3c2s1.O=[N+]([O-])c1cc([N+](=O)[O-])c(O)c([N+](=O)[O-])c1`, the growth rescue was inactive: -2.72%. In the case of `O=[N+]([O-])c1cc([N+](=O)[O-])c(-c2cnn(-c3ccccc3)c2)c([N+](=O)[O-])c1`, the growth rescue was active: 110%. The result for `O=[N+]([O-])c1cc([N+](=O)[O-])c(-n2nnc3ccccc32)c([N+](=O)[O-])c1` reads inactive: -0.815%; that for `CP(=O)(Nc1cccc(Br)c1)Oc1ccccc1` (stereo unspecified), inactive: -0.783%; that for `Cc1cc(C)cc(OP(C)(=O)Nc2ccccn2)c1` (stereo unspecified), inactive: 0.269%. The same measure for `Cc1ccc(C)c(NP(C)(=O)Oc2ccccc2)c1` (stereo unspecified): inactive: -1.28%; for `Cc1cc(C)cc(OP(C)(=O)Nc2ccc(C)cc2C)c1` (stereo unspecified): inactive: -0.656%. The result for `CCOC(=O)c1ccc(NP(C)(=O)Oc2cc(C)cc(C)c2)cc1` (stereo unspecified) reads inactive: 0.822%; that for `COc1cc(C(=O)NCC2(N3CCOCC3)CCCCC2)cc(Cl)c1OC(C)C`, inactive: 0.651%; that for `COc1ccccc1OP(C)(=O)Nc1cccc(Br)c1` (stereo unspecified), inactive: -0.478%. Turning to `CC1=NCCc2c1[nH]c1ccccc21.O=[N+]([O-])c1cc([N+](=O)[O-])c(O)c([N+](=O)[O-])c1`, the growth rescue was inactive: 0.219%.

For `O=C(O)c1cccc(Nc2c([N+](=O)[O-])cc([N+](=O)[O-])cc2[N+](=O)[O-])c1`, the growth rescue is inactive: 0.816%.

Turning to `O=[N+]([O-])c1cc([N+](=O)[O-])c(OC2CCCCC2O)c([N+](=O)[O-])c1` (stereo unspecified), the growth rescue is inactive: -0.536%. On to `CCCCCOc1ccc(NP(C)(=O)Oc2ccc(Cl)cc2Cl)cc1` (stereo unspecified), for which the growth rescue was inactive: -0.16%. The same measure for `CP(=O)(Nc1ccccc1)Oc1ccc(F)cc1` (stereo unspecified): inactive: -1.28%.

On to `CCN(CC)CCCOC(=O)C(O)(c1ccccc1)C1CCCCC1` (stereo unspecified), for which the growth rescue is inactive: -1.12%. The same measure for `Cc1c([N+](=O)[O-])cc([N+](=O)[O-])c(Br)c1[N+](=O)[O-]`: inactive: -0.459%.
